In assay [1] the target is T1, spike glycoprotein expressed in VeroE6/TM2 cells during SARS-CoV-2 infection (SARS-CoV-2, isolate not named in the …, UniProt P0DTC2).
T1 construct: also called spike glycoprotein of live SARS-CoV-2
In words: immunostaining of cells or tissue; […]. To be noted: one partner purified.

For assay [2], the target named is wild-type (native) SARS-CoV-2 spike glycoprotein expressed in 293T cells (Severe acute respiratory syndrome …, UniProt P0DTC2). In words: western blotting. A general note: A western blot detects proteins with antibodies after separation by electrophoresis.
Assay [3] has as its target T1, spike glycoprotein expressed in …. Briefly: western blotting. Conditions: one partner purified.

Like-named read-outs stand apart in the source and are kept apart here.

B1: mouse anti-SARS-CoV-2 spike monoclonal antibody clone S3D8 (antibody, V domains shown)
VH: QVQLQQSGAELVKPGASVKLSCKASGYTFTSYYMYWMKQRPGQGLEWIGEINPSNGGTNFNEKFKSKATLTVDKSSSTAYMQLSSLTSEDSAVYYCTIFITRDAMDYWGQGTSVTVSS
VL: QIVLTQSPAIMSASPGEKVTLTCSASSSVSSSYLFWYQQKPGSSPKLWIYTTSNLASGVPARFSGSGSGTSYSLTISSMEAEDAASYFCHQWSSYPPTFGAGTKLELK
B1: the binding result in assay [1] is recorded as “binds”.

B2: mouse anti-SARS-CoV-2 spike monoclonal antibody clone S1D7 (antibody, V domains shown)
VH: QVQLQQSGAELVKPGASVKLSCKASGYTFTSYYIYWMKQRPGQGLEWIGEINPNNGGTNFNEKFKSKATLTVDKSSSTAYMQLSSLTSEDSAVYYCTRGHSDYWGQGTTLTVSS
VL: DIVLTQSPASLAVSLGQRATISCRASESVEYYGTGLMQWYQQKPGQPPKLLIYAASNVESGVPARFSGSGSGTDFSLNIHPVEEDDIAMYFCQQTRKVPYTFGGGTKLEIK
As to B2, in assay [1], the binding result is on record as “binds”.

B3: mouse anti-SARS-CoV-2 spike monoclonal antibody clone R52 (antibody, V domains shown)
VH: QIQLVQSGPELKKPGETVKISCKASGYTFTNYGMNWVKQAPGNGLRWMGWINTYTREPSYAADFKGRFAFSLETSARAAYLQINNLKNEDTATYFCARNGAMDYWGQGTSVTVSS
VL: DVVMTQTPLTLSVTFGQPASISCKSSQSLLDSDGKTYLIWLLQRPGQSPKRLISLVSKLDSGVPDRFTGSGSGTDFTLKISRVEAEDLGVYYCWQGTHFPGTFGGGTKLEIK
Regarding B3, the binding result in assay [2] (one partner purified) and in assay [3] was “binds” throughout.

B4: recombinant human/mouse chimeric antibody R52h (antibody, V domains shown)
VH: QIQLVQSGPELKKPGETVKISCKASGYTFTNYGMNWVKQAPGNGLRWMGWINTYTREPSYAADFKGRFAFSLETSARAAYLQINNLKNEDTATYFCARNGAMDYWGQGTSVTVSS
VL: DVVMTQTPLTLSVTFGQPASISCKSSQSLLDSDGKTYLIWLLQRPGQSPKRLISLVSKLDSGVPDRFTGSGSGTDFTLKISRVEAEDLGVYYCWQGTHFPGTFGGGTKLEIK
For B4, in assay [2], the binding result is “binds”.

B5: mouse anti-SARS-CoV-2 spike monoclonal antibody clone R22 (antibody, V domains shown)
VH: EVQLQQSGPELVRPGASVKISCKTSGYTFTEYIIHWVKQSHGKSLEWIGGIDPNNGDTSYNQKFKGKASLTVDKSSSTAYMELRSLTSDDSAVYYCARLDFDYWGQGTTLTVSS
VL: DIVMTQSHKFMSTSVGDRVSITCKASQDVRTAVAWYQQKPGQSPKLLIYWASTRYTGVPDRFTGSGSGTDYTLTISSVQAEDLALYYCQQHDSTPLTFGAGTKLELK
Consider B5, for which the binding result in assay [3] is reported as “binds”.
